Data as given in PubChem BioAssay AID624099 (ICCB-Longwood, 2012).
Aim: 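Human genes that papillomavirus E2 requires to repress the HPV18 LCR promoter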 (primary screen). Cell system: human C33A cervical carcinoma cells (HPV-negative) stably expressing BPV1 E2 and an HPV18 LCR luciferase reporter. Reagent: siRNA pool against human genes, 40 nM. Duration: 72 h. Detection: 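HPV18 LCR reporter light per well, converted to plate-wise z-scores that exclude control wells, and averaged over triplicate plates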. Scale: mean z-score and z-score: higher = stronger reporter signal, weaker E2 silencing. Rule for the call: 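Hit if mean z-score reaches 2 and two or more of three replicate z-scores also reach 2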.
The deposit covers about 21,000 reagents; below is a random part of them. Over the whole deposit, 497 (2.4%) got an active call. 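Higher z means weaker E2 silencing; only reporter increases were scored, and knock-downs that hurt cell survival may mask genuine repressor factors.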 Unmarked entries are inactive.

gene | mean z-score | z-score, replicate A | z-score, replicate B | z-score, replicate C
LEKR1 (GeneID 389170) | 1.13 | 1.17 | 1.2 | 1.03
ITFG2-AS1 (GeneID 283440) | 0.51 | 0.66 | 0.32 | 0.54
LAMA3 (GeneID 3909) | -0.63 | -0.75 | -0.6 | -0.53
TMEM250 (GeneID 90120) | 0.06 | -0.02 | 0.18 | 0.03
SPRY4 (GeneID 81848) | -0.25 | -0.33 | -0.43 | 0.02
ITSN2 (GeneID 50618) | -2.83 | -2.73 | -3.1 | -2.66
SRPX2 (GeneID 27286) | -1.23 | -1.31 | -1.44 | -0.92
LOC441534 (retired record) (GeneID 441534) | -0.06 | -0.36 | 0.01 | 0.17
HES3 (GeneID 390992) | -0.67 | -0.66 | -0.43 | -0.91
ISOC2 (GeneID 79763) | 0.61 | 0.82 | 0.63 | 0.39
DDX31 (GeneID 64794) | -2.5 | -2.79 | -2.38 | -2.32
FDFT1 (GeneID 2222) | 1.96 | 1.43 | 1.69 | 2.77
RAB9BP1 (GeneID 9366) | 1.24 | 0.84 | 1.42 | 1.46
SATB1 (GeneID 6304) | -0.13 | -0.34 | -0.03 | -0.01
SPRR2B (GeneID 6701) | 0.09 | 0.17 | 0.26 | -0.16
LOC389441 (retired record) (GeneID 389441) | -0.04 | -0.14 | -0.1 | 0.11

Sorted by “z-score, replicate A” (highest first): 3 of the entries above
gene | mean z-score | z-score, replicate A | z-score, replicate B | z-score, replicate C
TMEM250 (GeneID 90120) | 0.06 | -0.02 | 0.18 | 0.03
SPRY4 (GeneID 81848) | -0.25 | -0.33 | -0.43 | 0.02
LAMA3 (GeneID 3909) | -0.63 | -0.75 | -0.6 | -0.53

Further reagents:
gene | mean z-score | z-score, replicate A | z-score, replicate B | z-score, replicate C
LOC153297 (retired record) (GeneID 153297) | -0.35 | -0.3 | -0.13 | -0.61
ZNF767P (GeneID 79970) | 0.14 | 0.27 | 0.35 | -0.21
CACNA1E (GeneID 777) | -0.73 | -0.92 | -0.45 | -0.81
OR2T29 (GeneID 343563) | -3.92 | -4.25 | -3.76 | -3.74
CYYR1 (GeneID 116159) | 0.52 | 0.16 | 0.42 | 0.97
OR11H1 (GeneID 81061) | -0.11 | -0.56 | 0.12 | 0.1
ASNSP1 (GeneID 389652) | -1.2 | -1.21 | -1.07 | -1.32
SSX4 (GeneID 6759) | -0.75 | -0.76 | -0.97 | -0.51
HSP90AB1 (GeneID 3326) | 0.46 | 0.5 | 0.73 | 0.14
GOLGA8CP (GeneID 729786) | -0.31 | -0.09 | -0.3 | -0.54
ARMH1 (GeneID 339541) | -0.8 | -0.25 | -1.09 | -1.07
FGF17 (GeneID 8822) | -1.32 | -1.3 | -1.1 | -1.57
SMPD4 (GeneID 55627) | -0.55 | -0.57 | -0.51 | -0.58
LDHB (GeneID 3945) | 1.1 | 1.24 | 0.94 | 1.11
TRAPPC5 (GeneID 126003) | 0.17 | 0.25 | 0.2 | 0.08
CD3G (GeneID 917) | 0.4 | 0.32 | 0.5 | 0.39
HDGFL2 (GeneID 84717) | -0.28 | -0.12 | -0.33 | -0.39
COLCA1 (GeneID 399948) | -0.3 | -0.32 | -0.25 | -0.32
PARK7 (GeneID 11315) | 1.53 | 1.86 | 1.5 | 1.23
PCDHGA3 (GeneID 56112) | 1.26 | 1.25 | 1.27 | –
MPP4 (GeneID 58538) | 0.72 | 0.17 | 0.81 | 1.16
ATP13A2 (GeneID 23400) | 1.69 | 1.7 | 1.68 | 1.68
RAB14 (GeneID 51552) | 0.85 | 0.65 | 0.83 | 1.05
